Pooled drug test results. Numbers come from NIAID ChemDB, via PubChem.

Shared fields: tests in culture; organism: HIV-2; endpoint: EC50

ECn: concentration that inhibits the pathogen or its effect by n%.

compound	cells	strain or isolate	read by	result
O=c1[nH]c(=O)n([C@H]2C=C[C@@H](CO)O2)cc1Cl	CEM + CEM TK-	ROD	syncytia	>50 µM
O=c1[nH]c(=S)[nH]c2nc(-c3ccccn3)c(-c3ccccn3)nc12	MT-4	ROD	cytopathic effect / MTT / absorbance	>79.23 µM
Nn1c(-c2ccc(Cl)c(Cl)c2)n[nH]c1=S	MT-4	ROD	MTT	>72.83 µg/mL
[N-]=[N+]=N[C@H]1C[C@@H](CO)O[C@H]1n1cnc2c(NC3CC3)ncnc21	MT-4	ROD	-	>125 µg/mL
CSCCC(c1nnc(SCc2ccc(Br)cc2)o1)N(Cc1ccc(Br)cc1)S(=O)(=O)c1ccc(C)cc1	MT-4	ROD	-	>125 µg/mL
CCCCCCCC(=O)Oc1ccc(COP(=O)(OCc2ccc(OC(=O)CCCC)cc2)OP(=O)(O)OCC2C=C[C@H](n3cc(C)c(=O)[nH]c3=O)O2)cc1	CEM	ROD	syncytia	1.05 µM
Cc1cn([C@@H]2O[C@@H]3CN[C@@]4(OCc5ccccc5)CS(=O)(=O)O[C@@]34[C@H]2O[Si](C)(C)C(C)(C)C)c(=O)[nH]c1=O	MT-4	ROD	-	>10 µM
Cc1ccc(S(=O)(=O)NC(C)c2nnc(SCc3ccc(Cl)cc3)o2)cc1	MT-4	ROD	-	>27.93 µg/mL
Cc1ccc(Nn2c(-c3ccccc3)c(C)[nH]c2=S)cc1Cl	MT-4	ROD	cytopathic effect / MTT	>44.29 µM
Clc1nccc2nc(-c3ccccn3)c(-c3ccccn3)nc12	MT-4	ROD	cytopathic effect / MTT / absorbance	>67.36 µM
CC(C)(C)C(=O)OC[C@@H]1C=C[C@H](n2cc(Cl)c(=O)[nH]c2=O)O1	CEM + CEM TK-	ROD	syncytia	≥50 µM
CC(C)(C)[Si](C)(C)OC[C@H]1O[C@@H](n2ccc(=O)[nH]c2=O)[C@H](O[Si](C)(C)C(C)(C)C)[C@]12O[C@@H]2CO	MT-4	ROD	cytopathic effect / trypan blue	>10 µM
CSCCC(NS(=O)(=O)c1ccc(Cl)cc1)c1nnc(SCc2ccc(Br)cc2)o1	MT-4	ROD	-	>12.3 µg/mL
Oc1ccc(-c2nnc3sc(-c4ccco4)nn23)c(Cl)c1Cl	MT-4	ROD	MTT	>27.2 µg/mL
Cc1cn([C@@H]2O[C@H](CO[Si](C)(C)C(C)(C)C)C3(O[C@H]3C(=O)NN)[C@H]2O[Si](C)(C)C(C)(C)C)c(=O)[nH]c1=O	MT-4	ROD	cytopathic effect / trypan blue	>10 µM
CC(C)(C)C(=O)OC[C@@H]1C=C[C@H](n2cc(I)c(=O)[nH]c2=O)O1	CEM + CEM TK-	ROD	syncytia	>50 µM
Cc1ncn(Nc2ccccc2)c1-c1ccccc1	MT-4	ROD	cytopathic effect / MTT	>52.18 µM
CC1(CO)CCC(Cn2nnc3c(=O)[nH]c(N)nc32)C1(C)C	CEM	-	cytopathic effect	≥100 µg/mL
Cc1cn([C@@H]2O[C@@H]3CN[C@@]4(OCCO)CS(=O)(=O)O[C@@]34[C@H]2O[Si](C)(C)C(C)(C)C)c(=O)[nH]c1=O	MT-4	ROD	-	>25 µM
O=c1[nH]c(=O)c2nc(-c3ccccn3)c(-c3ccccn3)nc2[nH]1	MT-4	ROD	cytopathic effect / MTT / absorbance	>103 µM
Cc1[nH]c(=S)n(Nc2cccc(Cl)c2)c1C(=O)O	MT-4	ROD	cytopathic effect / MTT	>266 µM
Clc1ccc(-c2nnc3sc(-c4cccnc4)nn23)cc1Cl	MT-4	ROD	MTT	>80.05 µg/mL
Cc1ccc(S(=O)(=O)NC(C)c2nnc(SCc3ccc(F)cc3)o2)cc1	MT-4	ROD	-	>70.8 µg/mL
CCO[C@]12CS(=O)(=O)O[C@@]13[C@@H](CN2)O[C@@H](n1cc(C)c(=O)[nH]c1=O)[C@@H]3O	CEM	ROD	-	>250 µM
CCCCC(=O)Oc1ccc(COP(=O)(OCc2ccc(OC(=O)c3ccc(C)cc3)cc2)OP(=O)(O)OCC2C=C[C@H](n3cc(C)c(=O)[nH]c3=O)O2)cc1	CEM	ROD	syncytia	1.05 µM
Clc1ccc(-c2nnc3sc(-c4cccs4)nn23)cc1Cl	MT-4	ROD	MTT	>92.7 µg/mL
Cc1cn([C@@H]2O[C@@H]3CN[C@@]4(OCC5CCOC5)CS(=O)(=O)O[C@@]34[C@H]2O)c(=O)[nH]c1=O	MT-4	ROD	-	>250 µM
CCc1ncn(Nc2cccc(C)c2)c1-c1ccccc1	MT-4	ROD	cytopathic effect / MTT	>27.87 µM
Cc1cn([C@@H]2O[C@@H]3CN[C@H]4CS(=O)(=O)O[C@]43[C@H]2O[Si](C)(C)C(C)(C)C)c(=O)[nH]c1=O	CEM	ROD	-	>125 µM
CC1(CO)CCC(Cn2cnc3c(=O)[nH]c(N)nc32)C1(C)C	CEM	-	cytopathic effect	>100 µg/mL
[N-]=[N+]=N[C@H]1C[C@@H](CO)O[C@H]1n1cnc2c(NC3CCCC3)ncnc21	MT-4	ROD	-	>125 µg/mL
CCCOC12CS(=O)(=O)OC13[C@@H](CN2)O[C@@H](n1cc(C)c(=O)[nH]c1=O)[C@@H]3O	MT-4	ROD	-	>250 µM
Cc1cccc(Nn2cnc(C)c2C)c1	MT-4	ROD	cytopathic effect / MTT	>312 µM
CCCCCCCCCCCC(=O)Oc1ccc(COP(=O)(OCc2ccc(OC(C)=O)cc2)OP(=O)(O)OCC2C=C[C@H](n3cc(C)c(=O)[nH]c3=O)O2)cc1	CEM	ROD	syncytia	1.05 µM
Cc1cn([C@@H]2O[C@H](CO[Si](C)(C)C(C)(C)C)C3(O[C@H]3C(=O)NO)[C@H]2O[Si](C)(C)C(C)(C)C)c(=O)[nH]c1=O	MT-4	ROD	cytopathic effect / trypan blue	>2 µM
Nc1ccn(CCCC(O)CF)c(=O)n1	CEM	ROD	cytopathic effect	>100 µg/mL
Cc1cn([C@@H]2O[C@@H]3CN[C@@]4(OCC(C)(C)C)CS(=O)(=O)O[C@@]34[C@H]2O)c(=O)[nH]c1=O	MT-4	ROD	-	>250 µM
COC(=O)/C=C1/[C@@H](O[Si](C)(C)C(C)(C)C)[C@H](n2ccc(=O)[nH]c2=O)O[C@@H]1CO[Si](C)(C)C(C)(C)C	MT-4	ROD	cytopathic effect / trypan blue	>2 µM
Nc1ccc(-c2nnc3sc(-c4cc5ccccc5oc4=O)nn23)cc1	MT-4	ROD	MTT	>108.3 µg/mL
Nc1nc2nc(-c3ccccn3)c(-c3ccccn3)nc2c(=O)[nH]1	MT-4	ROD	cytopathic effect / MTT / absorbance	>105.7 µM
COC(=O)c1c(C)[nH]c(=S)n1Nc1cccc(Cl)c1	MT-4	ROD	cytopathic effect / MTT	>190 µM
CCCCCCCCCC(=O)Oc1ccc(COP(=O)(OCc2ccc(OC(=O)CCCC)cc2)OP(=O)(O)OCC2C=C[C@H](n3cc(C)c(=O)[nH]c3=O)O2)cc1	CEM/TK-	ROD	syncytia	6.31 µM
CO[C@]12CS(=O)(=O)O[C@@]13C(CN2)O[C@@H](n1cc(C)c(=O)[nH]c1=O)[C@@H]3O[Si](C)(C)C(C)(C)C	MT-4	ROD	-	>50 µM
O=C1CSc2nnc(-c3ccc(Cl)c(Cl)c3)n2N1	MT-4	ROD	MTT	>35.23 µg/mL
Cc1cn(C(CF)CCCO)c(=O)[nH]c1=O	CEM	ROD	cytopathic effect	>100 µg/mL
Clc1ccc(-c2nnc3sc(-c4ccco4)nn23)cc1Cl	MT-4	ROD	MTT	>27.2 µg/mL
CC(NS(=O)(=O)c1ccc(Cl)cc1)c1nnc(SCc2ccc(Cl)cc2)o1	MT-4	ROD	-	>14.08 µg/mL
CC1(CO)CCC(Cn2nnc3c(Cl)nc(N)nc32)C1(C)C	CEM	-	cytopathic effect	>0.8 µg/mL
Cc1ccc(S(=O)(=O)N(Cc2ccc(Br)cc2)C(C)c2nnc(SCc3ccc(Br)cc3)o2)cc1	MT-4	ROD	-	>125 µg/mL
Nc1cc(O)ccc1-c1nnc2sc(-c3cc4ccccc4oc3=O)nn12	MT-4	ROD	MTT	>108.3 µg/mL
O=c1[nH]c(=O)n([C@H]2C=C[C@@H](CO)O2)cc1F	CEM + CEM/0	ROD	syncytia	>10 µM
Nc1nc2c(ncn2CCCC(O)CF)c(=O)[nH]1	CEM	ROD	cytopathic effect	>100 µg/mL
Oc1ccc(-c2nnc3sc(-c4cccs4)nn23)c(Cl)c1Cl	MT-4	ROD	MTT	>82.7 µg/mL

For reference, 6 entries again:

compound,cells,strain or isolate,read by,result
COC(=O)/C=C1/[C@@H](O[Si](C)(C)C(C)(C)C)[C@H](n2ccc(=O)[nH]c2=O)O[C@@H]1CO[Si](C)(C)C(C)(C)C,MT-4,ROD,cytopathic effect / trypan blue,>2 µM
CCCCCCCC(=O)Oc1ccc(COP(=O)(OCc2ccc(OC(=O)CCCC)cc2)OP(=O)(O)OCC2C=C[C@H](n3cc(C)c(=O)[nH]c3=O)O2)cc1,CEM,ROD,syncytia,1.05 µM
O=c1[nH]c(=S)[nH]c2nc(-c3ccccn3)c(-c3ccccn3)nc12,MT-4,ROD,cytopathic effect / MTT / absorbance,>79.23 µM
CC(NS(=O)(=O)c1ccc(Cl)cc1)c1nnc(SCc2ccc(Cl)cc2)o1,MT-4,ROD,-,>14.08 µg/mL
CSCCC(c1nnc(SCc2ccc(Br)cc2)o1)N(Cc1ccc(Br)cc1)S(=O)(=O)c1ccc(C)cc1,MT-4,ROD,-,>125 µg/mL
Oc1ccc(-c2nnc3sc(-c4cccs4)nn23)c(Cl)c1Cl,MT-4,ROD,MTT,>82.7 µg/mL

Blank or dashed fields: not listed here. Conditions beyond the fields shown may differ between rows.